Data source: PubChem BioAssay AID1259414 (Drosophila RNAi Screening Center, 2018)
Screen: 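Fly genes that alter Wolbachia amount inside host cells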 (primary screen). Cells: Drosophila JW18 cells infected with Wolbachia. Knock-down reagent: long dsRNA against Drosophila genes, 0.25 µg dsRNA per well of a 384-well plate. Time to read-out: 5 days. Treatment: cells persistently infected with Wolbachia before knock-down; no added drug. Measurement: 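Imaged fluorescence in situ signal for Wolbachia 23S rRNA per DAPI-counted host cell, given as a robust z-score within each plate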. Direction: Wolbachia per cell robust z: higher = more Wolbachia per host cell than the plate typical. Rule for the call: 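Active if absolute robust z reaches 1.5 in two or more of three replicates, leaving out multi- or no-target dsRNAs, genes unexpressed in JW18 and A1 wells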.
The deposit covers about 24,000 reagents; below is an unselected part of those with a known target gene and a result. In the full data, about 1,210 (5%) are marked active. 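Inactive calls also include excluded dsRNAs with several or no targets, genes unexpressed in JW18, and well A1, regardless of score.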 Entries without a mark were called inactive. Names joined by + are all predicted targets of the reagent.

gene | DRSC id | Wolbachia per cell robust z, rep 1 | Wolbachia per cell robust z, rep 2 | Wolbachia per cell robust z, rep 3
Hs2st | DRSC03348 | -3.46 | -0.726 | 0.655
cyc | DRSC11337 | -2.76 (active) | -1.74 | 0.414
Bub3 | DRSC14168 | 0.516 | 0.57 | -6.31
Bub3 | DRSC28779 | 0.0894 | -8.84 | 0.591
PpD5 | DRSC04641 | -0.229 | 0.323 | -0.332
PpD5 | DRSC23312 | -0.211 | 0.351 | -0.587
CG18814 | DRSC10347 | -0.64 | 0.725 | -0.322
CG12438 | DRSC02167 | -1.4 | 0.613 | -0.175
CG9815 | DRSC04567 | -0.915 | -2.5 | -0.64
CG9815 | DRSC25175 | 0.443 | -0.656 | -0.0379
eag | DRSC19067 | 0.263 | -0.156 | -0.477
eag | DRSC20328 | -0.646 | -0.141 | -3.51
eag | DRSC28295 | 0.62 | -0.559 | 0.375
Jabba | DRSC06521 | -1.75 | -0.268 | -0.383
Jabba | DRSC37792 | 0.311 | 1.01 | 1.39
Uvrag | DRSC02932 | 0.621 | 0.0741 | 0.862
Atu | DRSC12123 | 0.563 | -0.35 | 0.479
asRNA:CR33945 | DRSC14080 | -0.661 | 0.157 | -0.377
asRNA:CR33945 | DRSC38805 | 1.08 | -0.313 | 0.775
boi | DRSC18425 | 0.233 | 0.639 | 0.294
boi | DRSC18598 | 0.598 | 0.441 | 1.48
boi | DRSC25851 | 0.437 | -0.476 | 0.423
Mvb12 | DRSC20027 | 1.09 | 0.929 | 1.44
Polr2A | DRSC20280 | 2.44 (active) | 2.22 | 1.43
Polr2A | DRSC27157 | 2.4 (active) | 1.57 | 1.56
Sf3b3 | DRSC08370 | 1.32 | 2.07 | -4.87
SNF4Agamma | DRSC13461 | 0.588 | 0.678 | 0.871
SNF4Agamma | DRSC13463 | -3.38 | 0.238 | 0.763
SNF4Agamma | DRSC15879 | -0.133 | 0.555 | 1.15
SNF4Agamma | DRSC16847 | 0.0223 | 0.763 | 1.6
SNF4Agamma | DRSC40676 | -0.675 | -0.0255 | 0.452
Cpr35B | DRSC01949 | -0.462 | 0.215 | -0.217
Cpr35B | DRSC22797 | -1.65 | 0.0167 | -5.33
Cpr35B | DRSC26431 | 0.224 | 0.88 | 0.226
rdx | DRSC16580 | 0.0769 | 0.134 | 0.0642
rdx | DRSC23120 | 0.81 | 0.713 | 0.206
rdx | DRSC29820 | -0.476 | -0.668 | -0.324
rdx | DRSC40835 | -0.823 | -0.854 | -0.737
Spc25 | DRSC14164 | 0.0463 | 0.808 | 1.04
Nph | DRSC16342 | 0.349 | 0.15 | -2.54
vret | DRSC15640 | 0.827 | -0.361 | -0.865
shep | DRSC09765 | 0.995 | 0.277 | -1.09
shep | DRSC09771 | -0.0582 | -5.9 | -0.902
shep | DRSC26847 | -1.03 | -0.421 | -11.6
Femcoat | DRSC18061 | -0.00474 | 0.407 | -4.87
Femcoat | DRSC28792 | -6.25 | 0.665 | 0.862
CG8060 | DRSC07064 | -0.428 | -0.507 | -1.89
mt:CoII | DRSC40607 | 0.676 | 1.49 | -1.95
Hem | DRSC11865 | -2.12 (active) | -2.64 | 0.518
Cyp6a22 | DRSC07382 | 0.218 | -1.22 | -0.414
Cyp6a22 | DRSC24011 | 0.962 | -0.0503 | -1.15
t-Grip84 | DRSC10904 | 0.406 | 0.149 | 1.31
kappaB-Ras + CG30503 | DRSC06619 | 0.338 | -0.2 | 0.796
kappaB-Ras + CG30503 | DRSC07636 | 0.542 | 0.866 | 0.0531
CG9485 | DRSC04557 | 0.887 | 1.2 | -0.00365
corn | DRSC11021 | 0.953 | 0.175 | 0.601
corn | DRSC21943 | -2.16 | -1.32 | -1.22
corn | DRSC27306 | -0.149 | -0.936 | -1.07
Rchy1 | DRSC23118 | 1.14 | -0.223 | -0.0843
Rchy1 | DRSC26775 | 0.0311 | 0.512 | -1.61
alrm | DRSC14436 | 0.741 | 0.106 | -0.424
mt:ND6 | DRSC21271 | -0.0546 | -1.52 | -0.0245
mt:ND6 | DRSC41543 | -0.292 | 0.147 | -2.74
CG10252 | DRSC14221 | -1.11 | -0.226 | -0.149
CG32971 | DRSC01372 | 0.583 | -1.05 | -0.363
CNPYb | DRSC09845 | -0.847 | 0.0218 | -1.21
geko | DRSC10044 | -0.15 | -8.82 | 0.644
geko | DRSC10045 | 0.148 | 0.756 | -0.648
Cad89D | DRSC15022 | -0.426 | -0.0431 | 0.472
Dso1 | DRSC21815 | -0.86 | -1.45 | -1.59
Dso1 | DRSC29771 | -0.794 | -0.915 | -5.55
pont | DRSC17029 | -2.07 (active) | -2.45 | -0.437
Tsen34 | DRSC22932 | 0.191 | -1.97 | -0.393
Pat1 | DRSC17750 | 0.893 | -2.95 | 1.12
Pat1 | DRSC27265 | -0.201 | -0.46 | -0.616
GILT1 | DRSC16565 | 0.576 | -0.468 | 0.291
CG2126 | DRSC15418 | 0.786 | 0.899 | -1.89
Uxt | DRSC01962 | -8.79 (active) | -3.06 | 1.08
noc | DRSC24997 | 0.499 | -1.35 | -0.355
spidey | DRSC17932 | 0.732 | -3.65 | 1
spidey | DRSC30107 | 0.389 | 0.881 | 0.295
twit | DRSC03210 | -5.81 | 0.124 | 1.01
twit | DRSC30028 | -0.819 | -0.338 | -3.35
CG5196 | DRSC15735 | 0.0755 | -1.61 | -1
CG5196 | DRSC26959 | 0.778 | 0.133 | -1.45
CG32333 | DRSC08627 | 1.07 | 0.95 | 0.183
CG32333 | DRSC08629 | 1.06 | 1.66 | 1.2
